# From paper PMC8158775, “Structure–Activity Relationship Assessment of Sophorolipid Ester Derivatives against Model Bacteria Strains” (Molecules, 2021)
# Test system: M1 activated macrophages (AMOs) from Raw 254.7 murine macrophages
# Assay: In vitro cytotoxicity study
# Assay type: cell-based
# Details: TI = EC50/MIC B. cereus
# Source text: A potential antimicrobial candidate must selectively kill pathogen cells without harming the host mammalian cells. To test the ability of SLs to effectively discriminate between bacteria and mammalian cells, a cytotoxicity assay was previously reported by our team. […] The therapeutic index (TI) is a parameter commonly used to determine potential drug selectivity. […] Generally, membrane-active agents are not considered for systemic administration directly, because of relatively low selectivity. Thus, designing suitable formulations and selecting suitable dose ranges are important in drug development.
row,Compound,TI relative to that of lactonic SL [×]
1,CCCCOC(=O)CCCCCCC/C=C\CCCCCCC(C)OC1OC(CO)C(O)C(O)C1OC1OC(CO)C(O)C(O)C1O (stereo not drawn) [SL-butyl ester],16

# Same assay, conditions: TI = EC50 macrophage/MIC B. cereus; EC50 = concentration causing 50% killing of macrophage after 16 h
row,Compound,Therapeutic index (TI)
1,"CC(=O)OCC1OC2OC(C)CCCCCC/C=C\CCCCCCCC(=O)OC3C(COC(C)=O)OC(OC2C(O)C1O)C(O)C3O (stereo not drawn) [Lactonic SL, reference compound]",2
2,CCCCOC(=O)CCCCCCC/C=C\CCCCCCC(C)OC1OC(CO)C(O)C(O)C1OC1OC(CO)C(O)C(O)C1O (stereo not drawn) [SL-butyl ester],33
3,CCCCCOC(=O)CCCCCCC/C=C\CCCCCCC(C)OC1OC(CO)C(O)C(O)C1OC1OC(CO)C(O)C(O)C1O (stereo not drawn) [SL-pentyl ester],17
4,CCOC(=O)CCCCCCC/C=C\CCCCCCC(C)OC1OC(CO)C(O)C(O)C1OC1OC(CO)C(O)C(O)C1O (stereo not drawn) [SL-ethyl ester],6
5,CCCOC(=O)CCCCCCC/C=C\CCCCCCC(C)OC1OC(CO)C(O)C(O)C1OC1OC(CO)C(O)C(O)C1O (stereo not drawn) [SL-propyl ester],16
